Anti-infective test results gathered from many reports (values: NIAID ChemDB through PubChem).

All rows: cytotoxicity tests; cells: TZM-bl; endpoint: CC50

Blank or dashed fields: not listed here. Conditions beyond the fields shown may differ between rows. CCn is the concentration with n% toxicity to the cells.

smiles	method	result
O=C1O[C@](CCl)(c2ccccc2)c2ccccc21	MTT	293 µM
COc1cc(OC)nc(N2C(=O)CSC2c2c(Cl)ncnc2Cl)n1	MTT	82.55 µM
CCCCCn1cc(C(N)(C(=O)OCC)C(F)(F)F)c2ccccc21	MTT	>112 µM
Cc1ccnc2c1NC(=O)c1cccnc1N2C1CC1	XTT / absorbance	>300 µM
O=C1CSC(c2c(Cl)ncnc2Cl)N1n1cnnc1	MTT	84.54 µg/mL
CC1=CC2=C(C(C)C)C(O)C(=O)/C(=C\N[C@@H](C(=O)O)C(C)C)C2C(O)=C1c1c(C)cc2c(C(C)C)c(O)c(O)c(C=N[C@H](C(=O)O)C(C)C)c2c1O.[Na+].[Na+]	MTT	49.29 µM
COC(=O)C(O)(c1c[nH]c2ccc(F)cc12)C(F)(F)F	MTT	385 µM
O=C1CSC(c2c(F)cccc2Cl)N1n1cnnc1	MTT	41.1 µg/mL
CCOC(=O)C(N)(c1c[nH]c2ccc(F)cc12)C(F)(F)F	MTT	>131 µM
Cc1[nH]c2ccccc2c1CC(=O)NC(Cc1ccccc1)C(=O)N(C)c1ccccc1	MTT	23.5 µM
CC(Cl)C1(c2ccc(F)cc2)OC(=O)c2c(Cl)c(Cl)c(Cl)c(Cl)c21	MTT	188 µM
CCOC(=O)C(N)(C1=CNC2C=C(C)C=CC12)C(F)(F)F	MTT	69.9 µM
Cc1ccc(-c2ccc3c(c2)C=C(C(=O)Nc2ccc(C[N+](C)(C)C4CCOCC4)cc2)CCC3)cc1	MTT	134 µM
O=c1[nH]c(=S)[nH]c(O)c1/C=C1\C=CC(c2cc(C(F)(F)F)ccc2Cl)=N1	XTT	>20 µM
CCC(I)C1(c2ccc(F)cc2)OC(=O)c2ccccc21	MTT	202 µM
C[C@H](N)C(=O)O.[Na+]	MTT	64.1 µM
CN(C)CCCn1c(=O)c2cc(Br)c3c(=O)n(CCCN(C)C)c(=O)c4c5[nH]c6ccccc6[nH]c5c(c1=O)c2c34	MTT	0.3432 µM
NC1C(O)OC(CO)C(O)C1O	MTT / absorbance	20.53 µM
CCOC(=O)C(O)(c1c[nH]c2ccc(C#N)cc12)C(F)(F)F	MTT	83.3 µM
Cc1cc(N)c(C)c2c1[nH]c1cc(Cl)ccc12		37.9 µM
CCOC(=O)C(N)(C1=CNC2C=C(Cl)C=CC12)C(F)(F)F	MTT	>125 µM
Cc1cc(C)cc(-n2ncc3c(=O)[nH]c(C)cc32)c1	MTT	679 µM
COC(=O)C(O)(c1cn(C(=O)OC(C)(C)C)c2ccccc12)C(F)(F)F	MTT	50.1 µM
Cc1ccnc2c1NC(=O)c1cccnc1N2C1CC1	MTT	1039 µM
COc1cccc2ccc(-c3nnc(-c4ccncc4)o3)nc12	MTT	208 µM
CC[C@H]1CC[C@@H](O)[C@@H](OC)CCCC[C@@H](c2ccccc2)OC(=O)[C@@H](C)[C@@]2(O)O[C@@H]1[C@@H](C)[C@H](O)[C@H]2OC		5.02 µM
O=C(O)[C@@H](CS(=O)(=O)c1ccc([N+](=O)[O-])cc1)NC(=O)C1(c2ccc3ccccc3c2)CCN(Cc2ccc3ccccc3c2)CC1	luminescence	60.27 µM
Cc1ccc(C)c2c1[nH]c1cc(Cl)ccc12		7.3 µM
CCOC(=O)C(O)(c1c[nH]c2ccc(Br)cc12)C(F)(F)F	MTT	34.14 µM
CCOC(=O)C(N)(c1c[nH]c2ccc(C(=O)OC)cc12)C(F)(F)F	MTT	>116 µM
CC[C@H](C)[C@H](N)C(=O)O.[Na+]	MTT	62.34 µM
CCOC(=O)C(N)(c1c[nH]c2ccc(O)cc12)C(F)(F)F	MTT	79.4 µM
Cc1ccc(/C=C/c2cc(Cl)c3ccccc3n2)cc1	MTT	23.23 µM
O=C1O[C@](CCl)(c2ccc(F)cc2)c2ccccc21	MTT	144.6 µM
CCOC(=O)C(O)(c1c[nH]c2cccc(O)c12)C(F)(F)F	MTT	808 µM
Cc1ccnc2c1NC(=O)c1cccnc1N2C1CC1		81.8 µM
Cc1nnc(C(C)C)n1C1C[C@H]2CC[C@@H](C1)N2CC[C@H](NC(=O)C1CCC(F)(F)CC1)c1ccccc1	XTT	>20 µM
CCC(Cl)C1(c2ccc(Br)cc2)OC(=O)c2ccccc21	MTT	220 µM
CCOC(=O)C(N)(c1c[nH]c2ccc(OC)cc12)C(F)(F)F	MTT	>126 µM
Fc1ccc(/C=C/c2cc(Cl)c3ccccc3n2)c(F)c1	MTT	72.92 µM
CCCCCOC(=O)C[C@H](NP(=O)(CO[C@@H](CF)Cn1ccc2c(=O)[nH]c(N)nc21)N[C@@H](CC(=O)OCCCCC)C(=O)OCCCCC)C(=O)OCCCCC	luminescence	8.94 µM
Nc1ccc(/C=C/c2cc(Cl)c3ccccc3n2)cc1	MTT	31.35 µM
CCOC(=O)C(O)(c1c[nH]c2ccc(F)cc12)C(F)(F)F	MTT	102 µM
COc1cccc(-c2nnc(-c3ccc4cccc(OC)c4n3)o2)c1	MTT	695 µM
CCCCCOC(=O)C[C@H](NP(=O)(COC(CF)Cn1ccc(N)nc1=O)Oc1ccccc1)C(=O)OCCCCC	visual reading	54.19 µM
Cc1coc(N2C(=O)CSC2c2c(Cl)ncnc2Cl)n1	MTT	187 µg/mL
Cc1cn([C@H]2C[C@H](N=[N+]=[N-])[C@@H](CO)O2)c(=O)[nH]c1=O	XTT	>0.2 µM
CCOC(=O)c1cccc(Cn2ccc3ccc(-c4ccc5ccn(Cc6cccc(C(=O)O)c6)c5c4)cc32)c1	resazurin	>50 µM
C(=Nc1ccccc1)c1cc2ccccc2nc1Nc1ccccc1	MTT	77.95 µM
Clc1cc(/C=C/c2ccc(N3CCCCC3)cc2)nc2ccccc12	MTT	137 µM
CC(C)(N)C(=O)O.[Na+]	MTT	65.1 µM
CC/C=C(\C)C[C@H](C)[C@H](O)[C@@H](C)[C@H]1O[C@@]2(C[C@@H](OC)[C@H]1C)O[C@H]([C@@H](C)[C@@H](O)[C@@H](C)/C=C/C=C/C=C/C=C/C=C/[C@@H](CC(=O)O)OC)[C@@H](C)C[C@@H]2O		0.35 µM
Cc1ccc(-c2ccc3c(c2)C=C(C(=O)Nc2ccc(C[N+](C)(C)C4CCOCC4)cc2)CCC3)cc1		>10 µM
CO[C@H]1CCCC[C@@H](c2ccccc2)OC(=O)C(C)[C@@]2(O)OC([C@@H](C)[C@H](O)[C@H]2OC)[C@@H](C)/C=C/[C@H]1OC	ATP	>10 µM
Cc1cn([C@H]2C[C@H](N=[N+]=[N-])[C@@H](CO)O2)c(=O)[nH]c1=O	MTT	35.64 µg/mL
CC(C)Nc1cccnc1N1CCN(C(=O)c2cc3cc(NS(C)(=O)=O)ccc3[nH]2)CC1	MTT	72.6 µM
Cc1cn([C@H]2C[C@H](N=[N+]=[N-])[C@@H](CO)O2)c(=O)[nH]c1=O	MTT	872 µM
C/C=C/[C@@H]1O[C@H](C/C=C/C=C(\C)C[C@@H](C)/C=C(C)\C=C\[C@H]2CC=CC(=O)O2)C[C@@H](O)[C@@H]1C	ATP / luminescence	0.0046 µM

Repeating the final 8 entries:

smiles,method,result
CC(C)(N)C(=O)O.[Na+],MTT,65.1 µM
CC/C=C(\C)C[C@H](C)[C@H](O)[C@@H](C)[C@H]1O[C@@]2(C[C@@H](OC)[C@H]1C)O[C@H]([C@@H](C)[C@@H](O)[C@@H](C)/C=C/C=C/C=C/C=C/C=C/[C@@H](CC(=O)O)OC)[C@@H](C)C[C@@H]2O,,0.35 µM
Cc1ccc(-c2ccc3c(c2)C=C(C(=O)Nc2ccc(C[N+](C)(C)C4CCOCC4)cc2)CCC3)cc1,,>10 µM
CO[C@H]1CCCC[C@@H](c2ccccc2)OC(=O)C(C)[C@@]2(O)OC([C@@H](C)[C@H](O)[C@H]2OC)[C@@H](C)/C=C/[C@H]1OC,ATP,>10 µM
Cc1cn([C@H]2C[C@H](N=[N+]=[N-])[C@@H](CO)O2)c(=O)[nH]c1=O,MTT,35.64 µg/mL
CC(C)Nc1cccnc1N1CCN(C(=O)c2cc3cc(NS(C)(=O)=O)ccc3[nH]2)CC1,MTT,72.6 µM
Cc1cn([C@H]2C[C@H](N=[N+]=[N-])[C@@H](CO)O2)c(=O)[nH]c1=O,MTT,872 µM
C/C=C/[C@@H]1O[C@H](C/C=C/C=C(\C)C[C@@H](C)/C=C(C)\C=C\[C@H]2CC=CC(=O)O2)C[C@@H](O)[C@@H]1C,ATP / luminescence,0.0046 µM